PubChem BioAssay AID1259414 – Drosophila RNAi Screening Center | 2018

- Test: 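Fly genes that alter Wolbachia amount inside host cells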 (primary screen)
- Cell system: Drosophila JW18 cells infected with Wolbachia
- Reagent: long dsRNA against Drosophila genes, 0.25 µg dsRNA per well of a 384-well plate
- Time to read-out: 5 days
- Conditions: cells persistently infected with Wolbachia before knock-down; no added drug
- Read-out: 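Automated imaging of bacterial rRNA staining divided by host cell count, reported as plate-normalised robust z-score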
- Scale: Wolbachia per cell robust z: higher = more Wolbachia per host cell than the plate typical
- Rule for the call: 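Active if absolute robust z reaches 1.5 in two or more of three replicates, leaving out multi- or no-target dsRNAs, genes unexpressed in JW18 and A1 wells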
In all, the deposit lists about 24,000 reagents; below is an unselected part of those that have a named target and a result. Of all reagents, about 1,210 (5%) are marked active. 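Inactive calls also include excluded dsRNAs with several or no targets, genes unexpressed in JW18, and well A1, regardless of score.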 Entries without a mark were called inactive. The numbers tell different reagents against one gene apart.

predicted target	reagent no.	Wolbachia per cell robust z, rep 1	Wolbachia per cell robust z, rep 2	Wolbachia per cell robust z, rep 3
YME1L	1	-1.69	1.03	1.24
CG4338	1	-0.269	0.136	0.893
Atg10	1	0.232	-0.366	-0.188
CG8500	1	-0.526	-7.92	-1.29
CG8500	2	-4.52	1.04	0.346
CanA-14F	1	-0.0583	0.291	-0.557
Pbgs	1	-2.48	-0.394	-0.17
kar	1	-0.972	-0.932	-6.15
CG17896	1	-2.93	-0.201	-0.148
CG17896	2	0.524	0.994	1.5
Ptx1	1	-4.61	-2.24	-0.272
Ptx1	2	-0.247	-0.82	-0.602
CG3740	1	0.209	-0.163	0.205
Npc2a	1	-0.321	-0.543	0.743
CG11686	1	-0.341	0.383	-0.0125
puc	1	3.32 (active)	0.626	4.6
puc	2	0.316	-0.359	-0.577
Rheb	1	-1.11	-5.65	1.2
CG7194	1	-0.308	0.488	0.44
Pka-C2	1	1.69	0.176	1.93
Pka-C2	2	-5.95	0.994	0.381
Pka-C2	3	-0.579	-2.02	-0.248
CG1983	1	-2.06	-0.673	0.0435
CG10814	1	0.466	0.766	-0.274
snoRNA:Psi28S-2566	1	1.24	-0.566	0.0523
Eig71Ek	1	0.325	0.139	1.14
Obp83cd	1	0.354	0.117	0.37
CG9313	1	0.77	-0.158	0.639
CG9313	2	0.219	0.628	-10.2
CG8641	1	-0.176	1.28	0.726
Neurochondrin	1	0.829	0.407	0.577
Neurochondrin	2	-0.262	-0.327	1.79
CG11384	1	-0.0175	-0.501	-0.085
CG43980	1	-0.447	-0.738	-0.652
CG43980	2	-0.378	1.06	0.126
CG43980	3	0.399	0.701	0.276
CG43980	4	0.676	-0.234	-0.673
CG43980	5	0.513	1.51	0.803
clos	1	1.06	0.0953	-1.47
clos	2	0.0362	-0.554	0.551
clos	3	1.62	-0.221	1.29
clos	4	-0.0679	-0.634	-1.09
clos	5	0.532	-1.37	-1.28
CG16727	1	-1.29	-2.68	-5.7
CG16727	2	0.383	0.0901	-0.717
CG32459	1	-0.247	-3.05	-2.26
APP-BP1	1	0.124	1.42	-0.158
Rev1	1	0.86	-0.553	-0.458
CG30273	1	-0.886	0.00607	-0.106
CG30273	2	0.0429	-0.0436	-0.517
VhaAC39-1	1	0.107	-1.14	-0.644
VhaAC39-1	2	0.137	1.12	1.85
CR40441	1	0.607	0.798	1.17
CG13794	1	-0.821	-0.663	-1.46
CG13794	2	-0.0241	-0.268	0.923
bel	1	0.511	0.0331	1.77
bel	2	1.79 (active)	1.43	3.06
Spg7	1	-4.13	0.428	0.588
Dnali1	1	-1.14	-1.39	-1.81
Pgm1	1	-0.263	-0.178	0.0268
Pgm1	2	-0.478	-2.78	-0.45
CG5013	1	0.243	1.4	0.927
LManVI	1	0.696	-0.931	0.726
LManVI	2	-3.92	-0.463	0.0253
CG3408	1	-0.878	0.144	-0.552
CG16762	1	0.368	-4.47	-0.531
CG16926	1	0.624	0.509	0.982
NtR	1	-0.307	-1.07	-0.606
NtR	2	0.118	0.449	0.987

Laid out differently: entries from further up.
VhaAC39-1 #1 — Wolbachia per cell robust z, rep 1 = 0.107; Wolbachia per cell robust z, rep 2 = -1.14; Wolbachia per cell robust z, rep 3 = -0.644
VhaAC39-1 #2 — Wolbachia per cell robust z, rep 1 = 0.137; Wolbachia per cell robust z, rep 2 = 1.12; Wolbachia per cell robust z, rep 3 = 1.85
CR40441 — Wolbachia per cell robust z, rep 1 = 0.607; Wolbachia per cell robust z, rep 2 = 0.798; Wolbachia per cell robust z, rep 3 = 1.17
CG13794 #1 — Wolbachia per cell robust z, rep 1 = -0.821; Wolbachia per cell robust z, rep 2 = -0.663; Wolbachia per cell robust z, rep 3 = -1.46
CG13794 #2 — Wolbachia per cell robust z, rep 1 = -0.0241; Wolbachia per cell robust z, rep 2 = -0.268; Wolbachia per cell robust z, rep 3 = 0.923
bel #1 — Wolbachia per cell robust z, rep 1 = 0.511; Wolbachia per cell robust z, rep 2 = 0.0331; Wolbachia per cell robust z, rep 3 = 1.77
bel #2 — Wolbachia per cell robust z, rep 1 = 1.79 (active); Wolbachia per cell robust z, rep 2 = 1.43; Wolbachia per cell robust z, rep 3 = 3.06
Spg7 — Wolbachia per cell robust z, rep 1 = -4.13; Wolbachia per cell robust z, rep 2 = 0.428; Wolbachia per cell robust z, rep 3 = 0.588
Dnali1 — Wolbachia per cell robust z, rep 1 = -1.14; Wolbachia per cell robust z, rep 2 = -1.39; Wolbachia per cell robust z, rep 3 = -1.81
